{"sequences": {"note": "By UniProt entry, the sequences of proteins in these tests, tags left out. Where a name states a change or a piece, a line headed by the entry shows the natural chain unless it says otherwise.", "UniProt P9WKE1": "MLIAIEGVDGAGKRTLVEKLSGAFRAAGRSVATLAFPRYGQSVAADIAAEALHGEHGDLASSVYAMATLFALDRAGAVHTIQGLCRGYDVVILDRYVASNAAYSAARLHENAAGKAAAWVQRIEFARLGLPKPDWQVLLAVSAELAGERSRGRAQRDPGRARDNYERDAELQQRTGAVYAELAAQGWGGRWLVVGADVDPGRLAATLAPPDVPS"}, "source": "patent US20080096907A1", "about": "“Aryl, Pyrimidyl Compounds, Pharmaceutical Compositions Comprising them, Their Use as Antimicrobial Agents” (INSTITUT PASTEUR, priority 2004, published 2008)", "target": "TMPKmt (M. tuberculosis TMPK) (Mycobacterium tuberculosis, UniProt P9WKE1)", "format": "biochemical", "settings": "pH 7.4"}
{"substance": "5-[4-(5-Methyl-2,4-dioxo-3,4-dihydro-2H-pyrimidin-1-yl-methyl)-phenyl]-penten-2-oic acid [Compound 28]", "values": [{"measurement": "Ki", "result": 48, "unit": "µM"}]}
